HELM strings list residues between dots; [ac] is acetyl, [am] amide, other brackets name non-standard units.
Assay: general procedure: Fmoc solid-phase peptide synthesis; Fmoc-PAL-PEG-PS; HBTU/HOBT
Details: whole synthesis; for final HPLC purity: analytical RP-HPLC

Substance | crude yield [%] | final HPLC purity [%] | crude yield (cleavage yield)
Fmoc-Tyr-Gly-Arg-Lys-Lys-Arg-Arg-Gln-Arg-Cit-Arg-NH2 | 64.9 |  | 
PEPTIDE1{[ac].Y.G.[Agb].K.K.[Agb].[Agb].Q.[Agb].[Agb].[Agb].[am]}$$$$V2.0 | 53.6 | 99.0 | >99%
Fmoc-Tyr-Gly-Arg-Lys-Lys-Arg-Cit-Gln-Arg-Arg-Arg-NH2 | 65.7 |  | 
PEPTIDE1{[ac].Y.G.R.K.K.R.R.Q.R.R.R.[am]}$$$$V2.0 | 59.6 | 98.7 | >99%
6CF-βAla-Tyr-Gly-Arg-Lys-Lys-Arg-Arg-Gln-Cit-Arg-Arg-NH2 | 57.5 | 95.9 | >99% yield
Fmoc-Tyr-Gly-Arg-Lys-Lys-Arg-Arg-Gln-Arg-Arg-Cit-NH2 | 75.5 |  | 
Ac-Tyr-Gly-Arg-Lys-Lys-Arg-Arg-Gln-Arg-Arg-Cit-NH2 | 65.3 | 97.8 | >99% yield
6CF-βAla-Tyr-Gly-Arg-Lys-Lys-Cit-Arg-Gln-Arg-Arg-Arg-NH2 | 53.4 | 95.5 | >99% yield
6-carboxyfluorescein-βAla-Tyr-Gly-Agh-Lys-Lys-Agh-Agh-Gln-Agh-Agh-Agh-NH2 | 52.0 | 98.6 | >99%
6CF-βAla-Tyr-Gly-Arg-Lys-Lys-Arg-Arg-Gln-Arg-Cit-Arg-NH2 | 64.2 | 96.4 | >99% yield
Fmoc-Tyr-Gly-Arg-Lys-Lys-Cit-Arg-Gln-Arg-Arg-Arg-NH2 | 62.6 |  | 
Ac-Tyr-Gly-Arg-Lys-Lys-Cit-Arg-Gln-Arg-Arg-Arg-NH2 | 61.7 | 98.2 | >99% yield
6CF-βAla-Tyr-Gly-Cit-Lys-Lys-Arg-Arg-Gln-Arg-Arg-Arg-NH2 | 30.5 | 97.5 | >99% yield
6-carboxyfluorescein-βAla-Tyr-Gly-Agb-Lys-Lys-Agb-Agb-Gln-Agb-Agb-Agb-NH2 | 46.5 | 96.1 | >99%
Ac-Tyr-Gly-Arg-Lys-Lys-Arg-Cit-Gln-Arg-Arg-Arg-NH2 | 64.3 | 97.3 | >99% yield
Ac-Tyr-Gly-Arg-Lys-Lys-Arg-Arg-Gln-Cit-Arg-Arg-NH2 | 65.6 | 97.1 | >99% yield
Ac-Tyr-Gly-Cit-Lys-Lys-Arg-Arg-Gln-Arg-Arg-Arg-NH2 | 50.6 | 98.0 | >99% yield
6-carboxyfluorescein-βAla-Tyr-Gly-Arg-Lys-Lys-Arg-Arg-Gln-Arg-Arg-Arg-NH2 | 48.3 | 99.2 | >99%
Fmoc-Tyr-Gly-Arg-Lys-Lys-Arg-Arg-Gln-Cit-Arg-Arg-NH2 | 63.0 |  | 
6CF-βAla-Tyr-Gly-Arg-Lys-Lys-Arg-Cit-Gln-Arg-Arg-Arg-NH2 | 46.6 | 97.3 | >99% yield
6CF-βAla-Tyr-Gly-Arg-Lys-Lys-Arg-Arg-Gln-Arg-Arg-Cit-NH2 | 68.0 | 96.4 | >99% yield
PEPTIDE1{[ac].Y.G.[Agh].K.K.[Agh].[Agh].Q.[Agh].[Agh].[Agh].[am]}$$$$V2.0 | 66.6 | 98.5 | >99%
Fmoc-Tyr-Gly-Cit-Lys-Lys-Arg-Arg-Gln-Arg-Arg-Arg-NH2 | 51.1 |  | 
Ac-Tyr-Gly-Arg-Lys-Lys-Arg-Arg-Gln-Arg-Cit-Arg-NH2 | 64.2 | 96.2 | >99% yield
